Results taken from PMC2580030.

Columns and labels:
[1] = target: recombinant soluble empty (peptide free) HLA-DR1 (human)
[2] = target: recombinant soluble empty (peptide free) HLA-DR1 (human); test: native gel or EMSA
[3] = target: recombinant soluble empty (peptide free) HLA-DR1 (human); remark: listed apart in the source

For QSY-7 labeled HA 306-318 peptide, the fold effect on affinity against unlabeled HA [1] was 3 fold.
In the case of HA 306-318 peptide, fluorescein-labeled, the t1/2 [2] is reported as 7.46 h.
unlabeled HA 306-318 peptide was tested, and the Kd [3] was 83.3 nM.
